Consider 82 compounds from PubChem BioAssay AID504621 (Broad Institute, 2011).

The entries are a selection whose mix differs from that of the whole data set. Some salts and complexes are drawn in separate pieces, as the source files them; their charges need not balance. Activity calls are given as the source filed them.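 Rule for the calls: active = every replicate shows inhibition above about 80%, whatever the replicate mean (limit read from the data); inconclusive = mean inhibition reaches the set limit but some replicate falls short; inactive = the rest.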

This assay can be described thus: reduced ATP signal of yeast carrying P. falciparum Hsp90 – S. cerevisiae, BacTiter-Glo luminescence, single point, set 2, antimalarial PfHsp90 inhibitor project, primary screen (AID 504621).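 Note: yeast relying on Plasmodium falciparum Hsp90 in place of its own; 0% = DMSO neutral controls and 100% = 20 µM radicicol positive controls.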 Particulars: S. cerevisiae expressing PfHsp90, growth, 48 h, at 9.4 µM, hits give high values, yeast lacking PDR1 and PDR3 efflux regulators.
In the case of `CP(=O)(Nc1ccc(Cl)cc1)Oc1ccc(F)cc1` (configuration not stated), the inhibition (in general, the drop in the measured response relative to a control, in per cent) was inactive: -14.9%. As for `COc1ccccc1OP(C)(=O)Nc1ccccc1Br` (configuration not stated), the inhibition was inactive: -5.98%. Then `CC(C)(C)c1ccc(OP(C)(=O)O)cc1`, with inactive: 6.77%. Then `CN(C)C(=O)c1c([N+](=O)[O-])cc([N+](=O)[O-])cc1[N+](=O)[O-]`, with inactive: -17.9%. Then `CCN(CC)CC(O)COC(=O)C(O)(c1ccccc1)C1CCCCC1` (configuration not stated), with inactive: -3.79%; and `CCc1ccc(OP(C)(=O)Nc2cccnc2)cc1` (configuration not stated), with inactive: 2.1%.

Take `CP(=O)(Oc1ccccc1)N1CCOC1=O` (configuration not stated): the inhibition is inactive: 9.14%. Then `O=C(OCCCN1CCCC1)C(O)(c1ccccc1)C1CCCCC1` (configuration not stated), with inactive: 6.93%. Then `COc1ccccc1OP(C)(=O)Nc1c(C)n(C)n(-c2ccccc2)c1=O` (configuration not stated), with inactive: -4.41%; and `CP(=O)(OC12CC3CC(CC(C3)C1)C2)OC12CC3CC(CC(C3)C1)C2`, with inactive: -12.3%. Then `CCOC(=O)c1ccc(NP(C)(=O)Oc2ccc(Cl)cc2)cc1` (configuration not stated), with inactive: -56.6%; and `CCCCCCCCCCCCCCCC1C[N+](C)(C)CCOP(C)(=O)O1` (configuration not stated), with inactive: 18.5%; and `CP(=O)(Nc1ccc(Cl)cc1Cl)Oc1ccccc1` (configuration not stated), with inactive: -6.7%. As to `CP(=O)(OCCOc1ccccc1)OCCOc1ccccc1`, the inhibition was inactive: 21.8%. Then `Cc1cc(C)cc(OP(C)(=O)Nc2cccc(C(F)(F)F)c2)c1` (configuration not stated), with inactive: 0.332%; and `O=C1C(O)=C([N+](=O)[O-])C(=O)C(O)=C1[N+](=O)[O-]`, with inactive: -2.69%.

For `COc1ccc(OP(C)(=O)Nc2ccccc2Br)cc1` (configuration not stated), the inhibition is inactive: 13.8%. Consider `COc1ccccc1OP(C)(=O)Nc1ccc(C)c(C)c1` (configuration not stated), for which the inhibition is inactive: 0.288%. With `Cc1c(NP(C)(=O)Oc2ccc(C(C)C)cc2)c(=O)n(-c2ccccc2)n1C` (configuration not stated), the inhibition is inactive: 13.2%. Then `O=[N+]([O-])c1cc([N+](=O)[O-])c(Nc2ccccn2)c([N+](=O)[O-])c1`, with inactive: -1.85%; and `CCc1ccc(OP(C)(=O)O)cc1`, with inactive: 9.63%; and `CP(=O)(Nc1ccccn1)Oc1ccccc1` (configuration not stated), with inactive: 9.58%. Then `COc1ccccc1OP(C)(=O)Nc1ccc(Br)cc1` (configuration not stated), with inactive: 7.94%. Then `CN(C)CCOC(=O)C(O)(c1ccccc1)C1CCCC1` (configuration not stated), with inactive: 3.86%; and `COc1ccc(OP(C)(=O)Nc2ccccn2)cc1` (configuration not stated), with inactive: -8.01%; and `O=C(OCCN1CCN(CCOCc2ccccc2)CC1)C(O)(c1ccccc1)c1ccccc1`, with inactive: 1.09%. For the compound `O=C(OC1CN2CCC1CC2)c1ccc([N+](=O)[O-])cc1` (configuration not stated), the inhibition is inactive: 9.96%. For `COc1ccc2c(c1O)-c1c(O)c(OC)cc3c1[C@H](C2)[N+](C)(C)CC3.O=[N+]([O-])c1cc([N+](=O)[O-])c([O-])c([N+](=O)[O-])c1[O-]`, the inhibition was inactive: 1.27%. Then `CC(C)c1ccc(OP(C)(=O)Nc2ccc(SC(F)(F)F)cc2)cc1` (configuration not stated), with inactive: 15.7%; and `CCN(CC)CCCOC(=O)C(O)(c1ccccc1)C1CCCCC1` (configuration not stated), with inactive: 20.7%. Then `Cc1c([N+](=O)[O-])cc([N+](=O)[O-])c(Br)c1[N+](=O)[O-]`, with inactive: -9.9%; and `CCCCCOc1ccc(NP(C)(=O)Oc2ccc(Cl)cc2Cl)cc1` (configuration not stated), with inactive: -6.43%; and `O=[N+]([O-])c1cc([N+](=O)[O-])c(OC2CCCCC2O)c([N+](=O)[O-])c1` (configuration not stated), with inactive: 22.4%. With `CP(=O)(Nc1ccccc1)Oc1ccc(F)cc1` (configuration not stated), the inhibition is inactive: 13.1%. Then `COc1ccc(OP(C)(=O)Nc2ccc(SC(F)(F)F)cc2)cc1` (configuration not stated), with inactive: -2.57%; and `CCOC(=O)c1ccc(NP(C)(=O)Oc2ccc(F)cc2)cc1` (configuration not stated), with inactive: -14.6%. Take `Cc1cc(-c2cccc3ccccc23)c(C)cn1.O=[N+]([O-])c1cc([N+](=O)[O-])c(O)c([N+](=O)[O-])c1`: the inhibition was inactive: 21%. As for `O=[N+]([O-])c1cc([N+](=O)[O-])c(NCC2CCS(=O)(=O)C2)c([N+](=O)[O-])c1` (configuration not stated), the inhibition is inactive: -18.3%. Then `O=[N+]([O-])c1ccc(OP2(=O)COCCO2)cc1` (configuration not stated), with inactive: 3.85%; and `Cc1c(C(c2ccc3c(c2)OCO3)c2c(C)n(C)n(-c3ccccc3)c2=O)c(=O)n(-c2ccccc2)n1C.O=[N+]([O-])c1cc([N+](=O)[O-])c(O)c([N+](=O)[O-])c1`, with inactive: -4.61%.

As to `COc1ccc(NP(C)(=O)Oc2ccccc2OC)cc1` (configuration not stated), the inhibition was inactive: -17.2%. Then `CN(C)CCOC(=O)C(O)(c1ccccc1)C1CCCCC1` (configuration not stated), with inactive: 0.74%.

With `CP(=O)(Nc1ccc2c(c1)OCCO2)Oc1ccccc1` (configuration not stated), the inhibition was inactive: 11.3%. As to `Cc1ccccc1NP(C)(=O)Nc1ccccc1C`, the inhibition is inactive: -20.6%. With `CP(=O)(Nc1ccc(SC(F)(F)F)cc1)Oc1ccc(F)cc1` (configuration not stated), the inhibition is inactive: -4.11%.

As to `CCOP(C)(=S)SCC(=O)NC(C)(CC)C(=O)O` (configuration not stated), the inhibition is inactive: 3.78%.

As for `O=[N+]([O-])c1cc([N+](=O)[O-])c(-c2cnn(-c3ccccc3)c2)c([N+](=O)[O-])c1`, the inhibition is active: 107%. Then `Cc1nc2ccc3ccccc3c2s1.O=[N+]([O-])c1cc([N+](=O)[O-])c(O)c([N+](=O)[O-])c1`, with inactive: -18.5%. For `O=[N+]([O-])c1cc([N+](=O)[O-])c(-n2nnc3ccccc32)c([N+](=O)[O-])c1`, the inhibition is inactive: -5.58%. Then `CN1CCCCC1COC(=O)C1(O)c2ccccc2CCc2ccccc21` (configuration not stated), with inactive: -7.69%. Then `CCCOc1ccc(NP(C)(=O)Oc2ccc(Cl)cc2)cc1` (configuration not stated), with inactive: -14.6%; and `CP(=O)(Nc1ccc(SC(F)(F)F)cc1)Oc1ccccc1` (configuration not stated), with inactive: 15.6%. Then `CCOC(=O)C(CC)C1=NC(C)(C)Cc2ccccc21.O=[N+]([O-])c1cc([N+](=O)[O-])c(O)c([N+](=O)[O-])c1` (configuration not stated), with inactive: -11.9%; and `CC1=C2N=C(C=C3N=C(C(C)=C4[N-][C@@](C)([C@@H]5N=C1[C@](C)(CCC(=O)NC[C@@H](C)OP(=O)([O-])O[C@H]1[C@@H](O)[C@@H](n6cnc7cc(C)c(C)cc76)O[C@@H]1CO)[C@H]5CC(N)=O)[C@@](C)(CC(N)=O)[C@@H]4CCC(N)=O)[C@@](C)(CC(N)=O)[C@@H]3CCC(N)=O)C(C)(C)[C@@H]2CCC(N)=O.[C-]#N.[Co+3]`, with inactive: 13.6%.

Take `O=[N+]([O-])c1cc([N+](=O)[O-])c(Nc2nnnn2CCO)c([N+](=O)[O-])c1`: the inhibition is inactive: 7.12%. Then `CC1=NCCc2c1[nH]c1ccccc21.O=[N+]([O-])c1cc([N+](=O)[O-])c(O)c([N+](=O)[O-])c1`, with inactive: 14.5%; and `O=C(O)c1cccc(Nc2c([N+](=O)[O-])cc([N+](=O)[O-])cc2[N+](=O)[O-])c1`, with inactive: -1.57%. Then `Cc1cc(C)cc(OP(C)(=O)Nc2ccccn2)c1` (configuration not stated), with inactive: -10.8%; and `CP(=O)(Nc1cccc(Br)c1)Oc1ccccc1` (configuration not stated), with inactive: -14.2%; and `Cc1ccc(C)c(NP(C)(=O)Oc2ccccc2)c1` (configuration not stated), with inactive: -24.7%. Then `COc1ccccc1OP(C)(=O)Nc1cccc(Br)c1` (configuration not stated), with inactive: 34.9%; and `Cc1cc(C)cc(OP(C)(=O)Nc2ccc(C)cc2C)c1` (configuration not stated), with inactive: -15.8%; and `CCOC(=O)c1ccc(NP(C)(=O)Oc2cc(C)cc(C)c2)cc1` (configuration not stated), with inactive: 12.7%. `CCN(CC)CCCOC(=O)C(O)(c1ccccc1)c1ccccc1`: the inhibition is inactive: -2.47%. For `CCOC(=O)c1ccc(NP(C)(=O)Oc2ccccc2)cc1` (configuration not stated), the inhibition was inactive: 1.08%.

In the case of `Cc1ccc(NP(C)(=O)Oc2ccccc2)c(C)c1` (configuration not stated), the inhibition is inactive: 4.78%.

Consider `COc1ccccc1OP(C)(=O)Nc1ccc(C)cc1` (configuration not stated), for which the inhibition was inactive: 3.47%. With `COc1ccccc1OP(C)(=O)Nc1cc(Cl)ccc1C` (configuration not stated), the inhibition was inactive: -39.7%. Then `Cc1cc(C)cc(OP(C)(N)=O)c1` (configuration not stated), with inactive: -8.84%. Then `O=[N+]([O-])c1cc([N+](=O)[O-])c(Nc2cccnc2)c([N+](=O)[O-])c1`, with inactive: -6.1%. Then `Cc1cccc(C)c1OP(C)(N)=O` (configuration not stated), with inactive: 22.6%; and `CC(C)(C)c1ccc(OP(C)(=O)Nc2ccc(SC(F)(F)F)cc2)cc1` (configuration not stated), with inactive: -18.8%.

As to `O=[N+]([O-])c1ccc2c(c1)C=Nc1ccccc1O2`, the inhibition was inactive: -8.37%. Take `CP(=S)(Nn1cnnc1)Oc1ccccc1` (configuration not stated): the inhibition was inactive: -0.558%. Then `COc1ccccc1OP(C)(=O)Nc1ccccc1` (configuration not stated), with inactive: 19.5%. Then `CP(=O)(Nc1ccccc1Br)Oc1ccccc1` (configuration not stated), with inactive: -23.2%; and `CCOC(=O)c1ccc(NP(C)(=O)Oc2ccc(OC)cc2)cc1` (configuration not stated), with inactive: -58.4%; and `CP(=O)(Nc1ccccn1)Oc1ccc(Cl)cc1` (configuration not stated), with inactive: -8.53%. Then `CP(=O)(Oc1ccccc1)OC(c1ccccc1)C(F)(F)F` (configuration not stated), with inactive: 0.88%; and `Cc1cccc(C)c1OP(C)(=O)Nc1ccc(SC(F)(F)F)cc1` (configuration not stated), with inactive: 15.8%; and `CP(=O)(NC(=O)Nc1ccccc1)Oc1ccccc1` (configuration not stated), with inactive: 12.2%. In the case of `CCc1ccc(OP(C)(=O)N2CCN(c3ccc([N+](=O)[O-])cc3)CC2)cc1` (configuration not stated), the inhibition is inactive: -3.61%.
